Measured values taken from PMC9486567.

Target: 6×His tag-labeled ubiquitin (UniProt P0CG48)
Assay: ITC
Conditions: domain or fragment

Substance: LotA_(1-542) (from UniProt Q5ZTB4 1-542)
- Kd: 3.35 µM
